Test system: 63-GN clinical isolates
Assay: Match of colistin disk diffusion with MIC (broth micro-dilution)
Type: cell-based

colistin
resistance match rate between MIC and disk diffusion (P. aeruginosa and Acinetobacter strains, FIGS. 7A to 7F): 100% | match rate with MIC (P. aeruginosa, medium with agar 5.1 g/L and protamine 100 μg/ml): 100% | match rate between MIC and disk diffusion, colistin-susceptible strain (colistin-susceptible strain, FIGS. 7A to 7F): approximately 97.8%
